Reference: patent US4239708A, “P-Phenylene bis[imino(thiocarbonyl)] diphosphoramidic acid esters as anthelmentic agents” (dated 1980)

Columns and labels:
[1] = system: Trichostrongylus colubriformis; assay: Control of adult Trichostrongylus colubriformis in rabbits
[2] = system: Ostertagia circumcincta; assay: Efficacy test in sheep, O. circumcincta
[3] = system: Strongyloides ransomi; assay: Efficacy for the control of Strongyloides ransomi infections in pigs; conditions: for Ave. No. of S. ransomi: control 273
[4] = system: Haemonchus contortus; assay: Efficacy test in sheep, H. contortus
[5] = system: Trichostrongylus colubriformis; assay: Efficacy test in sheep, T. colubriformis
[6] = system: Nematospiroides dubius; assay: Mouse/Helminth Evaluation, N. dubius; conditions: mice
[7] = system: Aspicularis tetraptera; assay: Mouse/Helminth Evaluation, A. tetraptera; conditions: mice, absence or presence of parasites is criterion
[8] = system: Hymenolepis nana; assay: Mouse/Helminth Evaluation, H. nana; conditions: mice, absence or presence of parasites is criterion
[9] = system: Ascaris suum; assay: Efficacy test in pigs, A. suum; conditions: small intestine, 50 mg/kg oral
[10] = system: Oesophagostomum spp.; assay: Efficacy test in pigs, Oesophagostomum spp.; conditions: large intestine, 50 mg/kg oral

SMILES | % Efficacy ([1]; single oral dose 25 mg/kg) | % Efficacy ([1]; single oral dose 50 mg/kg) | % Efficacy Against O. circumcineta ([2]; oral dose 25 mg/kg) | % Efficacy Against O. circumcineta ([2]; oral dose 50 mg/kg) | Efficacy ([3]; SOD 50 mg/kg) | Ave. No. of S. ransomi ([3]; SOD 50 mg/kg) | % Efficacy Against H. contortus ([4]; oral dose 25 mg/kg) | % Efficacy Against H. contortus ([4]; oral dose 50 mg/kg) | % Efficacy Against T. colubriformis ([5]; oral dose 25 mg/kg) | % Efficacy Against T. colubriformis ([5]; oral dose 50 mg/kg) | activity against N. dubius ([6]; 0.05% in diet for 7 days) | activity against N. dubius ([6]; 50 mg/kg single oral dose) | activity against A. tetraptera ([7]; 0.05% in diet for 7 days) | activity against A. tetraptera ([7]; 50 mg/kg single oral dose) | activity against H. nana ([8]; 0.05% in diet for 7 days) | activity against H. nana ([8]; 50 mg/kg single oral dose) | other results
CCOP(=O)(NC(=S)Nc1ccc(NC(=S)NP(=O)(OCC)OCC)c(OC)c1)OCC | 70.9% | 87.2% | 85.4% | 97.8% | 100% | 0 | 100% | 100% | 75.4% | 91.5% | Inactive | Inactive | Active | Inactive | Active | Inactive | % Efficacy Against O. circumcineta ([2]; oral dose 12.5 mg/kg): 48.2%; % Efficacy Against H. contortus ([4]; oral dose 12.5 mg/kg): 100%; % Efficacy Against T. colubriformis ([5]; oral dose 12.5 mg/kg): 16.5%; activity against N. dubius ([6]; 0.025% in diet for 7 days): Inactive; activity against N. dubius ([6]; 0.1% in diet for 7 days): Inactive; activity against H. nana ([8]; 0.025% in diet for 7 days): Active; activity against H. nana ([8]; 0.1% in diet for 7 days): Active
CCOP(=O)(NC(=S)Nc1ccc(NC(=S)NP(=O)(OCC)OCC)c(Cl)c1)OCC | 88% | 90% | 74% | 92.8% | 96% | 10 | 99.6% | 100% | 22.4% | 87.1% | Inactive | Inactive | Active | Active | Active | Inactive | Efficacy ([3]; SOD 25 mg/kg): 25%; Ave. No. of S. ransomi ([3]; SOD 25 mg/kg): 205; A. suum % Efficacy [9]: 100%; A. suum Ave. No. of worms retained ([9]; control 54): 0; Oesophagostomium spp. % Efficacy [10]: 100%; Oesophagostomium spp. Ave. No. of worms retained ([10]; control 43): 0
CCOP(=O)(NC(=S)Nc1ccc(NC(=S)NP(=O)(OCC)OCC)cc1)OCC |  |  |  | 99.5% | 35% | 176 |  | 100% |  | 94% |  |  |  |  |  |  | 
CCOP(=O)(NC(=S)Nc1ccccc1NC(=O)NS(=O)(=O)c1ccc(C)cc1)OCC |  | 0% |  | 44.2% |  |  |  | 97.8% |  | 48.2% |  |  |  |  |  |  | 
CCOP(=S)(NC(=O)Nc1ccccc1NC(=O)NP(=S)(OCC)OCC)OCC |  |  |  |  |  |  |  |  |  |  | Inactive | Inactive | Inactive | Inactive | Inactive | Inactive | 
CCOP(=O)(NC(=S)Nc1ccc(NC(=S)NP(=O)(OCC)OCC)c(SCc2ccccc2)c1)OCC |  |  |  |  |  |  |  |  |  |  | Inactive | Inactive | Active |  | Active | Inactive | 
